# Results reported in paper PMC11145185, “Inhibition of mRNA nuclear export promotes SARS-CoV-2 pathogenesis” (Proceedings of the National Academy of Sciences of the …, 2024).
# B1: GST-tagged SARS-CoV-2 Nsp1 R99A (natural protein)
# chain: not shown
# Target: T1, human NXF1(117-619)-NXT1 heterodimer, wild type (human, UniProt Q9UBU9 117-619; Q9UKK6 1-140)
# T1 construct: human NXF1 (mRNA export receptor), residues 117-619; human NXT1, coexpressed with NXF1; also called NXF1-NXT1; mRNA export receptor; source: E. coli Rosetta, coexpressed, purified (details in SI Appendix)
# T1 sequence (looked up) 1: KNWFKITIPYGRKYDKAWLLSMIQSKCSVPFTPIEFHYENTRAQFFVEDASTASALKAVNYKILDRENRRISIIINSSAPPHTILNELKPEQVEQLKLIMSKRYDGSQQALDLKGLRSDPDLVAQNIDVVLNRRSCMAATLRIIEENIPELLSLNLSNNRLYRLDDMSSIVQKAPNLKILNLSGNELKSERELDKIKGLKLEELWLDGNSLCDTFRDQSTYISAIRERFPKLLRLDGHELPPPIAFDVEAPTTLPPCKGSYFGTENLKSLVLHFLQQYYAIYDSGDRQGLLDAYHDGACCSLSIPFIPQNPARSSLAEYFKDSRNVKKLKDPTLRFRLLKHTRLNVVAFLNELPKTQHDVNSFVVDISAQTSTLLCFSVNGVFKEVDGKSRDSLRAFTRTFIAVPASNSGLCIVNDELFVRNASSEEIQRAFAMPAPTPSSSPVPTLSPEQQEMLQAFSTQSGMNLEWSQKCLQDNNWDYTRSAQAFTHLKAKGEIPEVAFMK
# T1 sequence (looked up) 2: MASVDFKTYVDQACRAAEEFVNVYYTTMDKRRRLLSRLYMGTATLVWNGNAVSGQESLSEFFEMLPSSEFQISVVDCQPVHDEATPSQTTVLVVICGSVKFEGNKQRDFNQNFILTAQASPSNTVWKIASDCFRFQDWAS
# Conditions: both partners purified
binder,measurement,value
B1,binding result,binds
